Anti-infective test results gathered from many reports (values: NIAID ChemDB through PubChem).

Common to all: growth or infection tests; species: HIV-1; cell line: ATH8; measure: EC50

ECn is the concentration giving n% inhibition of infection, replication or growth. Neighbouring rows are from separate reports. Blank or dashed fields: not listed here.

compound,strain,read by,result
Nc1ccn([C@H]2CC[C@@H](COP(=O)(O)O)O2)c(=O)n1,IIIB Laboratory strain,cytopathic effect / trypan blue,<10 µM
Nc1ncnc2c1ncn2[C@H]1CC[C@@H](CO)O1,IIIB,cytopathic effect,6 µM
Cc1ccc(C(=O)Nc2ccc(S(=O)(=O)O)c3cc(S(=O)(=O)O)cc(S(=O)(=O)O)c23)cc1NC(=O)c1cccc(NC(=O)Nc2cccc(C(=O)Nc3cc(C(=O)Nc4ccc(S(=O)(=O)O)c5cc(S(=O)(=O)O)cc(S(=O)(=O)O)c45)ccc3C)c2)c1,LAV Laboratory strain,cytopathic effect,<50 µg/mL
OC[C@H]1O[C@@H](n2cnc3c2NC=NC[C@H]3O)C[C@@H]1O,-,cytopathic effect,>0.02 µM
Cc1cn(CC(=O)CCO)c(=O)[nH]c1=O,IIIB,cytopathic effect / trypan blue,>100 µM
CSC[C@H](NC(=O)COc1cccc2ccccc12)C(=O)N[C@@H](Cc1ccccc1)[C@H](O)C(=O)N1CSC(C)(C)[C@H]1C(=O)NC(C)(C)C,LAI,trypan blue,0.2 µM
Nc1ncnc2c1ncn2[C@H]1CC[C@@H](CO)O1,LAV,cytopathic effect,<10 µM
Nc1nc2c(ncn2[C@H]2CC[C@@H](CO)O2)c(=O)[nH]1,IIIB,cytopathic effect / trypan blue,<10 µM
CC(C)(C)NC(=O)[C@@H]1CCCN1C(=O)[C@@H](O)[C@H](Cc1ccccc1)NC(=O)[C@H](CC(N)=O)NC(=O)OCc1ccccc1,LAI,trypan blue,1.1 µM
Nc1nc2c(ncn2[C@H]2CC[C@@H](CO)O2)c(=O)[nH]1,IIIB,cytopathic effect / trypan blue,<10 µM
Nc1nc2c(ncn2[C@@H]2C[C@H](CO)[C@H]2CO)c(=O)[nH]1,IIIB,cytopathic effect / trypan blue,<1 µM
CSC[C@H](NC(=O)COc1cccc2cnccc12)C(=O)N[C@@H](Cc1ccccc1)[C@H](O)C(=O)N1CSC(C)(C)[C@H]1C(=O)NC(C)(C)C,LAI,cytopathic effect,0.1 µM
Nc1nc2c(ncn2CC#CCO)c(=O)[nH]1,IIIB,cytopathic effect / trypan blue,>500 µM
Cc1cn([C@H]2CC[C@@H](CO)O2)c(=O)nc1N,IIIB Laboratory strain,cytopathic effect / trypan blue,>100 µM
Nc1nc2c(ncn2C=C=CCO)c(=O)[nH]1,IIIB,cytopathic effect / trypan blue,>500 µM
Cc1cn([C@H]2CC[C@@H](CO)O2)c(=O)[nH]c1=O,IIIB Laboratory strain,cytopathic effect / trypan blue,<200 µM
Nc1nc(N)c2ncn([C@@H]3C[C@H](CO)[C@H]3CO)c2n1,IIIB,cytopathic effect / trypan blue,100 µM
Nc1ncnc2c1ncn2[C@@H]1O[C@H](CO)C[C@@H]1F,-,thymidine uptake,<5 µM
Nc1ncn([C@H]2CC[C@@H](CO)O2)c(=O)n1,IIIB Laboratory strain,cytopathic effect / trypan blue,<10 µM
Nc1ccn([C@H]2CC[C@@H](CO)O2)c(=O)n1,LAV,cytopathic effect,<0.5 µM
CC(C)(C)NC(=O)C1N(C(=O)[C@@H](O)[C@H](Cc2ccccc2)NC(=O)[C@H](CS(C)(=O)=O)NC(=O)COc2cccc3ccccc23)CSC1(C)C,LAI,trypan blue,0.1 µM
Nc1ccn(C=C=CCO)c(=O)n1,IIIB,cytopathic effect / trypan blue,<0.2 µM
Cc1cn([C@H]2CC[C@@H](CO)O2)c(=O)[nH]c1=O,IIIB,cytopathic effect,160 µM
CSC[C@H](NC(=O)COc1cccc2cnccc12)C(=O)N[C@@H](Cc1ccccc1)[C@H](O)C(=O)N1CSC(C)(C)[C@H]1C(=O)NC(C)(C)C,RF,trypan blue,0.02 µM
Nc1ncnc2c1ncn2[C@@H]1C[C@H](CO)[C@H]1CO,IIIB,cytopathic effect / trypan blue,1 µM
Nc1ncnc2c1ncn2[C@@H]1C=C(CO)[C@@H](O)[C@H]1O,LAV Laboratory strain,cytopathic effect,>5 µg/mL
CSC[C@H](NC(=O)COc1cccc2cnccc12)C(=O)N[C@@H](Cc1ccccc1)[C@H](O)C(=O)N1CSC(C)(C)[C@H]1C(=O)NC(C)(C)C,RF,cytopathic effect,0.02 µM
Nc1ncnc2c1ncn2[C@H]1CC[C@@H](CO)O1,IIIB,cytopathic effect / trypan blue,<10 µM
CNc1ncnc2c1ncn2[C@@H]1C[C@H](CO)[C@H]1CO,IIIB,cytopathic effect / trypan blue,>500 µM
CC(C)[C@H](NC(=O)N(C)Cc1ccccn1)C(=O)N[C@@H](Cc1ccccc1)[C@@H](O)[C@H](O)[C@H](Cc1ccccc1)NC(=O)[C@@H](NC(=O)N(C)Cc1ccccn1)C(C)C,IIIB,cytopathic effect / trypan blue,<8.5 µM
Nc1nc2c(ncn2CC(O)CCO)c(=O)[nH]1,IIIB,cytopathic effect / trypan blue,>100 µM
Cc1cc(-c2ccc(N=Nc3ccc4c(S(=O)(=O)O)cc(S(=O)(=O)O)c(N)c4c3O)c(C)c2)ccc1N=Nc1ccc2c(S(=O)(=O)O)cc(S(=O)(=O)O)c(N)c2c1O,LAV Laboratory strain,cytopathic effect,<10 µg/mL
Cc1cn([C@H]2C[C@H](N=[N+]=[N-])[C@@H](CO)O2)c(=O)[nH]c1=O,IIIB,cytopathic effect,<0.25 µg/mL

Repeating the final 4 entries:

compound	strain	read by	result
CC(C)[C@H](NC(=O)N(C)Cc1ccccn1)C(=O)N[C@@H](Cc1ccccc1)[C@@H](O)[C@H](O)[C@H](Cc1ccccc1)NC(=O)[C@@H](NC(=O)N(C)Cc1ccccn1)C(C)C	IIIB	cytopathic effect / trypan blue	<8.5 µM
Nc1nc2c(ncn2CC(O)CCO)c(=O)[nH]1	IIIB	cytopathic effect / trypan blue	>100 µM
Cc1cc(-c2ccc(N=Nc3ccc4c(S(=O)(=O)O)cc(S(=O)(=O)O)c(N)c4c3O)c(C)c2)ccc1N=Nc1ccc2c(S(=O)(=O)O)cc(S(=O)(=O)O)c(N)c2c1O	LAV Laboratory strain	cytopathic effect	<10 µg/mL
Cc1cn([C@H]2C[C@H](N=[N+]=[N-])[C@@H](CO)O2)c(=O)[nH]c1=O	IIIB	cytopathic effect	<0.25 µg/mL